Among the data in PubChem BioAssay AID1159583 (ICCB-Longwood Screening Facility, Harvard Medical School, 2016) are fluorescence inhibition values, retold here.

SMILES strings stand for the structures. Several values for one entry are separate records, joined by “and”; a condition that tells them apart may be missing. Equal values may be shown once. Only a part is listed here, and it is no random draw. Activity calls are given as the source filed them. Rule as the data show it: active = fluorescence inhibition mostly above about 23% (no sharp cut-off); inactive = mostly below about 17%.

A short description of this assay: hypoxia reporter signal reduction in M. tuberculosis – fluorescence, absorbance growth readout, primary screen (AID 1159583). The conditions noted are these: M. tuberculosis hypoxia-regulated fluorescent reporter, active compounds read high, concentration not given here.
As for `CN(C(=O)Cc1ccc(Cl)c(Cl)c1)C1CCCCC1N1CCCC1` (stereo unspecified), the fluorescence inhibition was inactive: -0.367% and inactive: 5.75% and inactive: 7.04%.
For the molecule `CN(C)C(=O)c1c([N+](=O)[O-])cc([N+](=O)[O-])cc1[N+](=O)[O-]`, the fluorescence inhibition is inactive: 6.88%.
As to `CC1CCN(C(=O)Oc2c(Cl)cc(Cl)c3cccnc23)CC1`, the fluorescence inhibition was inactive: 5.54%.
Take `C[N+]1=C2C=CC=CC=C2SC12C([N+](=O)[O-])=CC([N+](=O)[O-])=C[C-]2[N+](=O)[O-]` (stereo unspecified): the fluorescence inhibition was inactive: 18.3%.
Take `COc1ccccc1OP(C)(=O)Nc1ccccc1Br` (stereo unspecified): the fluorescence inhibition is inactive: 18%.
With `Nc1ccc([As](=O)(O)c2ccc(N)cc2)cc1` the figure was inactive: 13.1%; with `CC(C)(C)c1ccc(OP(C)(=O)O)cc1`, inactive: 5.11%.
For `CP(=O)(Nc1ccc(Cl)cc1)Oc1ccc(F)cc1` (stereo unspecified), the fluorescence inhibition was inactive: 11.2%.
As to `O=C(OCCCN1CCCC1)C(O)(c1ccccc1)C1CCCCC1` (stereo unspecified), the fluorescence inhibition was inactive: 2.71%.
With `CC(=O)N1C2C3N(C(C)=O)C1C1N(C(C)=O)C(C(N1C(C)=O)N3C(C)=O)N2C(C)=O`, the fluorescence inhibition is inactive: 10.5%.
As for `CCc1ccc(OP(C)(=O)Nc2cccnc2)cc1` (stereo unspecified), the figure is inactive: -2.82%; as for `O=[N+]([O-])c1cc([N+](=O)[O-])c(CCNc2ccccc2)c([N+](=O)[O-])c1`, inactive: 7.67%; as for `CCc1nc2c(n1)c1c(non1O)c1c2no[n+]1[O-]`, inactive: 14.1%.
As for `Cc1ccc(NP(=O)(Oc2ccccc2)Oc2ccccc2)nc1`, the fluorescence inhibition was inactive: 2.11%.
With `COc1ccc(C2=NCC(CBr)S2)cc1` (stereo unspecified) the figure was inactive: 3.4%; with `COc1ccc(OP(C)(=O)Nc2ccc(Br)cc2)cc1` (stereo unspecified), inactive: -0.455%.
`CCN(CC)CC(O)COC(=O)C(O)(c1ccccc1)C1CCCCC1` (stereo unspecified): the fluorescence inhibition is inactive: 6.3%.
`O=[N+]([O-])c1cccc(NC2=NCC(CBr)S2)c1` (stereo unspecified): the fluorescence inhibition is inactive: 10.1%.
In the case of `O=C(O)CNc1ccc([As](=O)(O)O)cc1`, the fluorescence inhibition is inactive: 6.15%.
In the case of `CC(C)(C)C(=O)NC(Sc1ccncn1)C(Cl)(Cl)Cl` (stereo unspecified), the fluorescence inhibition was inactive: 2.69%.
With `O=[N+]([O-])c1ncn(CCn2ncnc2[N+](=O)[O-])n1`, the fluorescence inhibition was inactive: -5.82%.
As to `O=C(Nc1cc([As](=O)(O)O)ccc1O)c1ccccc1`, the fluorescence inhibition was inactive: 1.8%.
Consider `CP(=O)(OC12CC3CC(CC(C3)C1)C2)OC12CC3CC(CC(C3)C1)C2`, for which the fluorescence inhibition is inactive: 16.3%.
As for `Nc1ccc2c(ccc3cccnc32)n1.O=[N+]([O-])c1cc([N+](=O)[O-])c(O)c([N+](=O)[O-])c1`, the figure is inactive: 0.546%.
With `O=P1(N(CCCl)CCCl)OCCCS1` (stereo unspecified) the figure was inactive: 11.5%; with `CCN(N=Nc1nonc1N)c1nonc1N`, inactive: 7.55%; with `CP(=O)(Nc1ccc(Cl)cc1Cl)Oc1ccccc1` (stereo unspecified), inactive: 0.0468%.
On to `COc1ccccc1OP(C)(=O)Nc1ccc(C)c(C)c1` (stereo unspecified), for which the fluorescence inhibition was inactive: 9.16%.
With `Cc1ccc(NP(=O)(Oc2ccccc2F)Oc2ccccc2F)nc1`, the fluorescence inhibition was inactive: 6.5%.
In the case of `Cc1cc(SC(NC(=O)c2ccc(F)cc2)C(Cl)(Cl)Cl)ncn1` (stereo unspecified), the fluorescence inhibition is inactive: -1.08%.
As for `CCOP(=O)(Nc1ccccc1)OCC`, the figure is inactive: -13%; as for `CC(C)=NN=C(N)N[N+](=O)[O-]`, inactive: -1.04%; as for `CCN(CC)CC(C)C(C)OC(=O)C(O)(c1ccccc1)c1ccccc1` (stereo unspecified), inactive: 17.7%.
For the molecule `CCCC1OP(N)(=O)OCC1CC` (stereo unspecified), the fluorescence inhibition was inactive: 10.6%.
Regarding `CC(=O)Nc1ccc([As](=O)(O)O)cc1`, the fluorescence inhibition was inactive: 6.78%.
For `O=C(O)c1ccccc1[As](=O)(O)O`, the fluorescence inhibition is inactive: -11.3%.
With `O=P(Nc1nc2ccc(Cl)cc2s1)(c1ccccc1)c1ccccc1` the figure was inactive: 8.53%.
On to `Cc1cc(C)cc(OP(C)(=O)Nc2cccc(C(F)(F)F)c2)c1` (stereo unspecified), for which the fluorescence inhibition was inactive: -0.0218%.
As for `O=C1C(O)=C([N+](=O)[O-])C(=O)C(O)=C1[N+](=O)[O-]`, the figure is inactive: 15.9%; as for `COc1ccccc1OP(C)(=O)Nc1ccc(C)cc1C` (stereo unspecified), inactive: 9.05%.
`CCc1ccc(OP(C)(=O)O)cc1`: the fluorescence inhibition is inactive: -2.54%.
`Nc1cc(N)c2nonc2c1[N+](=O)[O-]`: the fluorescence inhibition is inactive: -6.62%.
On to `Cc1c(NP(C)(=O)Oc2ccc(C(C)C)cc2)c(=O)n(-c2ccccc2)n1C` (stereo unspecified), for which the fluorescence inhibition is inactive: 2.43%.
With `O=[N+]([O-])c1cc([N+](=O)[O-])c(Nc2ccccn2)c([N+](=O)[O-])c1`, the fluorescence inhibition was active: 53.3%.
For the molecule `CC(C)CC(=O)NC(Sc1ccc(Cl)cc1)C(Cl)(Cl)Cl` (stereo unspecified), the fluorescence inhibition is inactive: 3.66%.
Consider `O=C(NC(Sc1ccncn1)C(Cl)(Cl)Cl)c1ccccc1` (stereo unspecified), for which the fluorescence inhibition was inactive: 1.15%.
With `Oc1ccccc1CNc1ccccn1`, the fluorescence inhibition is inactive: 14.1%.
`Cc1ccc(OP(=O)(Nc2nccs2)Oc2ccc(C)cc2)cc1`: the fluorescence inhibition is inactive: 16.5%.
As for `COc1ccccc1OP(=O)(Nc1ccc(C)cn1)Oc1ccccc1OC`, the figure is inactive: 2.47%.
As for `COc1ccc(OP(C)(=O)Nc2ccccn2)cc1` (stereo unspecified), the figure is inactive: -2.68%; as for `CN1CCCC(OC(=O)C(c2ccccc2)c2ccccc2)C1` (stereo unspecified), inactive: -0.423%.
As to `CN(C)CCOC(=O)C(O)(c1ccccc1)C1CCCC1` (stereo unspecified), the fluorescence inhibition was inactive: 16.5%.
As for `Clc1ccc(Cl)c(NC2=NCC(CBr)S2)c1` (stereo unspecified), the fluorescence inhibition was inactive: 0.369%.
With `NC(=O)c1cc([N+](=O)[O-])cc([N+](=O)[O-])c1N` the figure was inactive: 5.08%; with `COc1ccccc1OP(C)(=O)Nc1ccc(Br)cc1` (stereo unspecified), inactive: 16%.
Regarding `CC(=O)Nc1ccc(Oc2c([N+](=O)[O-])cc([N+](=O)[O-])cc2[N+](=O)[O-])cc1`, the fluorescence inhibition was inactive: 6.1%.
Turning to `CC(=O)Nc1ccc([As](=O)(O)O)c(O)c1`, the fluorescence inhibition was inactive: 5.95%.
With `O=C(OC1CN2CCC1CC2)c1ccc([N+](=O)[O-])cc1` (stereo unspecified), the fluorescence inhibition was inactive: 6.69%.
With `CC(=O)c1ccc(N2CC2c2ccncc2)cc1` (stereo unspecified), the fluorescence inhibition was inactive: 8.46%.
In the case of `O=C(OCCN1CCN(CCOCc2ccccc2)CC1)C(O)(c1ccccc1)c1ccccc1`, the fluorescence inhibition was inactive: 7.75%.
With `Cc1ccccc1CN(C)C(=O)COC(=O)C(O)(c1ccccc1)c1ccccc1` the figure was inactive: -10.7%; with `CP(=O)(Nc1ccccc1F)Oc1ccccc1` (stereo unspecified), inactive: 3.56%.
For the molecule `CCc1cc(O)c([N+](=O)[O-])c(C)c1[N+](=O)[O-]`, the fluorescence inhibition is inactive: 9.52%.
`CC(C)(C)C(=O)NC(Sc1ccccc1)C(Cl)(Cl)Cl` (stereo unspecified): the fluorescence inhibition is inactive: 3.58%.
As to `CN(C(=O)Cc1ccccc1)C1CC[C@]2(CCCO2)CC1N1CCCC1` (stereo partly specified), the fluorescence inhibition is inactive: 8.6%.
As to `CCOc1ccc(C2=NCC(CBr)S2)cc1` (stereo unspecified), the fluorescence inhibition is inactive: 0.572%.
For the molecule `O=P1(Nc2nc3ccc(Cl)cc3s2)COc2ccccc2O1` (stereo unspecified), the fluorescence inhibition is inactive: 4.17%.
Consider `CP(=O)(Nc1ccccc1)Oc1ccc(F)cc1` (stereo unspecified), for which the fluorescence inhibition is inactive: 5.66%.
As for `O=[N+]([O-])c1cc([N+](=O)[O-])c(OC2CCCCC2O)c([N+](=O)[O-])c1` (stereo unspecified), the fluorescence inhibition is inactive: -13.5%.
On to `O=c1c2cc([N+](=O)[O-])ccc2[nH]c2c([N+](=O)[O-])cc([N+](=O)[O-])cc12`, for which the fluorescence inhibition is inactive: 30.8%.
`CN(C)C(=O)Oc1noc2ccccc12`: the fluorescence inhibition was inactive: 8.15%.
With `CC(NC(=O)COC(=O)C(O)(c1ccccc1)c1ccccc1)c1ccccc1` (stereo unspecified), the fluorescence inhibition is inactive: -1.65%.
With `Cc1ccccc1OP(=O)(Nc1ccccn1)Oc1ccccc1C` the figure was inactive: 4.4%; with `CC(=O)NC(SC(=S)N(CC(C)C)CC(C)C)C(Cl)(Cl)Cl` (stereo unspecified), inactive: -5.83%; with `Cc1ccc(OP(=O)(Nc2ccccn2)Oc2ccc(C)cc2)cc1`, inactive: -15.4%.
`COC(=O)c1cc2c(s1)N=C(c1ccccc1)N(C)P2(=O)N1CCOCC1` (stereo unspecified): the fluorescence inhibition is inactive: 2.53%.
On to `Cc1c([N+](=O)[O-])cc([N+](=O)[O-])c(Br)c1[N+](=O)[O-]`, for which the fluorescence inhibition is inactive: -2.86%.
For the molecule `CCC(=O)N1C2C3N(C(=O)CC)C1C1N(C(=O)CC)C(C(N1C(=O)CC)N3C(=O)CC)N2C(=O)CC`, the fluorescence inhibition is inactive: 2.85%.
For the molecule `CC1OP(=O)(Oc2ccccc2)CC2OC12` (stereo unspecified), the fluorescence inhibition is inactive: -0.938%.
`CCN(CC)CCCOC(=O)C(O)(c1ccccc1)C1CCCCC1` (stereo unspecified): the fluorescence inhibition is inactive: 9.25%.
Regarding `O=C(OC1CN2CCC1CC2)c1ccccc1` (stereo unspecified), the fluorescence inhibition was inactive: 6.62%.
As to `CCOC(=O)c1ccc(NP(C)(=O)Oc2ccc(F)cc2)cc1` (stereo unspecified), the fluorescence inhibition is inactive: 5.62%.
With `O=P1(N(CCCl)CCCl)OCCC2CCCCN21` (stereo unspecified), the fluorescence inhibition is inactive: 3.27%.
As for `COc1ccc(OP(C)(=O)Nc2ccc(SC(F)(F)F)cc2)cc1` (stereo unspecified), the figure is inactive: -4.83%.
As to `O=C(NC1CCS(=O)(=O)C1)NP(=S)(Oc1ccccc1)Oc1ccccc1` (stereo unspecified), the fluorescence inhibition was inactive: 6.09%.
Turning to `Cc1ccc(NP(=O)(Oc2cccc(C)c2)Oc2cccc(C)c2)nc1`, the fluorescence inhibition was inactive: -6.14%.
In the case of `c1ccc(-c2nn[nH]n2)c(-c2nn[nH]n2)c1`, the fluorescence inhibition was inactive: 13.7%.
As to `Nc1ccc([As](=O)(O)c2ccc([N+](=O)[O-])cc2)cc1`, the fluorescence inhibition is inactive: 22.9%.
As for `Cc1c(C(c2ccc3c(c2)OCO3)c2c(C)n(C)n(-c3ccccc3)c2=O)c(=O)n(-c2ccccc2)n1C.O=[N+]([O-])c1cc([N+](=O)[O-])c(O)c([N+](=O)[O-])c1`, the figure is inactive: -8.78%.
`O=[N+]([O-])c1ccc(O)c(C=NNc2ccc([N+](=O)[O-])cc2[N+](=O)[O-])c1`: the fluorescence inhibition is inactive: 20.9%.
Turning to `O=C(OC1CN2CCC1CC2)c1cccc(Cl)c1` (stereo unspecified), the fluorescence inhibition is inactive: -2.95%.
As for `O=[N+]([O-])c1ccc(OP2(=O)COCCO2)cc1` (stereo unspecified), the figure is inactive: 8.16%; as for `CC(=O)NC(SC(=S)N(C)C)C(Cl)(Cl)Cl` (stereo unspecified), inactive: 63.1%; as for `O=[N+]([O-])c1ncn(CCn2cnc([N+](=O)[O-])n2)n1`, inactive: 5.27%.
As to `CN(C(=O)Cc1ccc(Cl)c(Cl)c1)C1CC[C@@]2(CCCO2)CC1N1CCCC1` (stereo partly specified), the fluorescence inhibition is inactive: 2.32%.
With `Cc1cc(-c2cccc3ccccc23)c(C)cn1.O=[N+]([O-])c1cc([N+](=O)[O-])c(O)c([N+](=O)[O-])c1` the figure was inactive: -1.45%.
